PMC4364341, “NBD delivery improves the disease phenotype of the golden retriever model of Duchenne muscular dystrophy” (Skeletal Muscle, 2014)

Test system: wild type dogs
Experiment: Tibiotarsal joint (TTJ) tetanic force/torque, wild type dogs
Assay type: in vivo, dog
Details: n = 3
[1] = NBD group, age 2 months (start of treatment)
[2] = age 6 months, NBD 10 mg/kg IV 3x weekly for 4 months

With “TALDWSWLQTE [NBD, NBD peptide (…) fused to an Antennapedia protein transduction domain]” the “Absolute Tetanic Extension Force” value [1] was 13.46 ± 3.26 N, the “Absolute Tetanic Extension Torque” value [1] was 1.20 ± 0.41 Nm and the “Absolute Tetanic Flexion Force” value [1] was 4.52 ± 1.82 N. The “Absolute Tetanic Flexion Torque” value [1] was 0.42 ± 0.24 Nm, the “Body-mass Corrected Tetanic Extension Force” value [1] was 2.88 ± 1.10 N/kg and the “Body-mass Corrected Tetanic Extension Torque” value [1] was 0.25 ± 0.08 Nm/kg. For the same sequence, the “Body-mass Corrected Tetanic Flexion Force” value [1] was 0.90 ± 0.04^2 N/kg, the “Body-mass Corrected Tetanic Flexion Torque” value [1] was 0.08 ± 0.02 Nm/kg and the “Absolute Tetanic Extension Force” value [2] was 42.17 ± 7.46^1 N. For the same sequence, the “Absolute Tetanic Extension Torque” value [2] was 6.02 ± 1.38^1 Nm, the “Absolute Tetanic Flexion Force” value [2] was 25.75 ± 2.18^1 N and the “Absolute Tetanic Flexion Torque” value [2] was 3.65 ± 0.43^1 Nm. The “Body-mass Corrected Tetanic Extension Force” value [2] was 2.00 ± 0.22 N/kg, the “Body-mass Corrected Tetanic Extension Torque” value [2] was 0.28 ± 0.04 Nm/kg and the “Body-mass Corrected Tetanic Flexion Force” value [2] was 1.24 ± 0.19 N/kg. The “Body-mass Corrected Tetanic Flexion Torque” value [2] was 0.17 ± 0.02 Nm/kg.
